Pooled drug test results. Numbers come from NIAID ChemDB, via PubChem.

All rows: whole-cell or culture tests

Zones are inhibition diameters on agar. Blank or dashed fields: not listed here. MIC50, MIC90 and the like: level of inhibition, or share of isolates inhibited. Inhibition is in % at the dose shown (toxicity tests: loss of growth or viability). ECn is the concentration giving n% inhibition of infection, replication or growth. Neighbouring rows are from separate reports.

SMILES	strain or isolate	measure	organism	dose	method	conditions	mutations	result
CCCCNC(=O)Nc1ccc(S(=O)(=O)Nc2cc(C)on2)cc1	235/80	MIC100	Mycobacterium kansasii	-	broth dilution / absorbance	21 d	-	250 µM
COc1cc(Cc2cnc(N)nc2N)cc(OC)c1Br	ATCC 35840	MBC	Mycobacterium ulcerans	-	-	-	-	8 µg/mL
CC[C@@H](CO)NCCN[C@@H](CC)CO	K-10(PYUB180)	MIC	Mycobacterium avium paratuberculosis	-	-	-	-	10 µg/mL
Cc1nn(-c2ccccc2)c2c1C(c1cn(-c3ccccc3)nc1-c1ccc(Cl)cc1)C1=C(NC(C)(c3cc(O)cc(O)c3)NC1=O)O2	NCIM 2240	zone	Mycobacterium phlei	1 mg/mL	agar diffusion / agar	-	-	4.5 mm
CCCc1c2c([nH]c(=O)c1C)C(=O)c1[nH]c(=O)c(C)c(CCC)c1C2=O	ATCC 35752	MIC90	Mycobacterium chelonae	-	resazurin / fluorescence	-	-	>7.5 µg/mL
CO[C@H]1/C=C/O[C@@]2(C)Oc3c(C)c(O)c4c(O)c(c(/C=N/N5CCN(C)CC5)c(O)c4c3C2=O)NC(=O)/C(C)=C\C=C\[C@H](C)[C@H](O)[C@@H](C)[C@@H](O)[C@@H](C)[C@H](OC(C)=O)[C@@H]1C	A+	EC50	Mycobacterium aurum	-	-	-	-	<0.57 µg/mL
CN(C)[C@@H]1C(=O)C(C(N)=O)=C(O)[C@@]2(O)C(=O)C3=C(O)c4c(O)cccc4[C@@](C)(O)[C@H]3C[C@@H]12	37 clinical isolates	MIC50	Mycobacterium marinum	-	-	-	-	1.5 µg/mL
NNC(=O)c1ccncc1	330/88	MIC100	Mycobacterium kansasii	-	broth dilution / absorbance	21 d	-	>250 µM
O=C(O)c1cn(C2CC2)c2c(F)c(N3CCC(NC4CC4)C3)c(F)cc2c1=O	PI12/39	MIC	Mycobacterium avium complex	-	-	-	-	1 µg/mL
COc1cc(Cc2cnc(N)nc2N)cc(OC)c1OC	Isolate 5143	MBC	Mycobacterium ulcerans	-	-	-	-	>32 µg/mL
CCC1CN(c2c(F)cc3c(=O)c(C(=O)O)cn(C4CC4)c3c2OC)CCN1	BCG-CX1 (D94N)	MIC	Mycobacterium bovis	-	-	-	-	0.61 µg/mL
COc1nc2ccc(Br)cc2cc1[C@@H](c1ccccc1)[C@@](O)(CCN(C)C)c1cccc2ccccc12	103	MIC90	Mycobacterium abscessus	-	resazurin	-	-	1 µM
C#CC(CCCCC)OC(C)=O	1173P2	MIC	Mycobacterium bovis BCG	-	resazurin	24 h	-	125 µg/mL
CC(C)(C)c1ccc(/C=N/N=C(\N)c2ccccn2)cc1	-	inhibition	Mycobacterium fortuitum	100 µM	-	-	-	5.8%
CO[C@H]1/C=C/O[C@@]2(C)Oc3c(C)c(O)c4c(O)c(c5c(c4c3C2=O)NC2(CCN(CC(C)C)CC2)N=5)=NC(=O)/C(C)=C\C=C\[C@H](C)[C@H](O)[C@@H](C)[C@@H](O)[C@@H](C)[C@H](O)[C@@H]1C	CDC2	MIC	Mycobacterium avium intracellulare	-	-	-	-	0.075 µg/mL
CC(=O)O[C@H]1C[C@@]2(C)[C@@H](C[C@@H](O)[C@H]3[C@@]4(C)CC[C@@H](O)[C@@H](C)[C@@H]4CC[C@@]32C)/C1=C(\CCC=C(C)C)C(=O)O	ATCC 25291	Median MIC	Mycobacterium avium	-	-	-	-	20 µg/mL
C(#Cc1ccccc1)c1ccccc1	1173P2	MIC	Mycobacterium bovis BCG	-	resazurin	48 h	-	31.25 µg/mL
C/C=C(C)/C=C(\C)[C@@H](O)[C@H](C)[C@@H](O)[C@@H]1OC(=O)/C(CCCCCC)=C/c2csc(n2)[C@H](C)[C@@H](O)C[C@H](O)/C=C/C=C\C[C@@H]1O	-	MIC	Mycobacterium luteus	-	visual reading	-	-	32 µg/mL
CCCNC(=O)Nc1ccc(S(=O)(=O)Nc2cc(C)on2)cc1	235/80	MIC100	Mycobacterium kansasii	-	broth dilution / absorbance	14 d	-	1000 µM
C[C@H]1c2cccc(O)c2C(O)=C2C(=O)[C@]3(O)C(O)=C(C(N)=O)C(=O)[C@@H](N(C)C)[C@@H]3[C@@H](O)[C@@H]21	37 clinical isolates	MIC50	Mycobacterium marinum	-	-	-	-	2 µg/mL
N/C(=N\N=C\c1ccccn1)c1ccccn1	-	inhibition	Mycobacterium fortuitum	1000 µM	-	-	-	1.3%
NNC(=O)c1ccncc1	K-10(PYUB180)	MIC	Mycobacterium avium paratuberculosis	-	-	-	-	≥250 µg/mL
C#CCCCCCC	1173P2	MIC	Mycobacterium bovis BCG	-	resazurin	24 h	-	125 µg/mL
CC[C@@H](C(=O)[C@@H](C)[C@@H](O)[C@H](C)[C@@H]1O[C@@H]([C@@H](CC)C(=O)O)CC[C@@H]1C)[C@H]1O[C@@]2(C=C[C@@H](O)[C@@]3(CC[C@@](C)([C@H]4CC[C@](O)(CC)[C@H](C)O4)O3)O2)[C@H](C)C[C@@H]1C	-	MIC	Mycobacterium aurum	-	resazurin	-	T125 insertion	0.08 µg/mL
O=C(O)c1cc(C(F)(F)F)cc2c(=O)nc(N3CCN(CC4CCCCC4)CC3)sc12	2005-0484	MIC99	Mycobacterium massiliense	-	resazurin	-	-	>100 µg/mL
CCCCCC/C1=C\c2csc(n2)[C@H](C)[C@@H](O)C[C@H](O)/C=C/C=C\C[C@H](O)[C@H]([C@H](O)[C@@H](C)/C=C(C)/C=C(\C)C(C)OC)OC1=O	-	MIC	Mycobacterium luteus	-	visual reading	-	-	16 µg/mL
N/C(=N\N=C\c1ccccc1Sc1ccc(Cl)cc1)c1ccccn1	-	inhibition	Mycobacterium fortuitum	100 µM	-	-	-	2.3%
NC1CCN(c2nc3c(cc2F)c(=O)c(C(=O)O)cn3-c2ccc(F)cc2F)C1	25 isolates	MIC90	Mycobacterium fortuitum	-	-	-	-	>8 µg/mL
N[C@@H]1CONC1=O	ATCC 25291	Median MIC	Mycobacterium avium	-	-	-	-	50 µg/mL
NC[C@H]1O[C@H](O[C@H]2[C@H](O)[C@@H](O[C@H]3O[C@H](CO)[C@@H](O)[C@H](N)[C@H]3O)[C@H](N)C[C@@H]2N)[C@H](O)[C@@H](O)[C@@H]1O	isolate C-29 30	MIC	Mycobacterium avium complex	-	-	-	-	400 µg/mL
CC(C)N=c1cc2n(-c3ccc(Cl)cc3)c3ccccc3nc-2cc1Nc1ccc(Cl)cc1	ATCC 25291	Mean MIC	Mycobacterium avium	-	-	-	-	0.61 µg/mL
CN[C@@H]1[C@H](O[C@H]2[C@H](O[C@H]3[C@H](O)[C@@H](O)[C@H](N=C(N)N)[C@@H](O)[C@@H]3N=C(N)N)O[C@@H](C)[C@]2(O)C=O)O[C@@H](CO)[C@H](O)[C@H]1O	A+	EC90	Mycobacterium aurum	-	-	-	-	0.18 µg/mL
C[C@H]1COC2(CCN(c3nc(=O)c4cc(C(F)(F)F)cc(C(=O)O)c4s3)CC2)O1	Strain M	MIC99	Mycobacterium marinum	-	resazurin	-	-	0.0007 µg/mL
CN[C@@H]1[C@H](O[C@H]2[C@H](O[C@H]3[C@H](O)[C@@H](O)[C@H](N=C(N)N)[C@@H](O)[C@@H]3N=C(N)N)O[C@@H](C)[C@]2(O)C=O)O[C@@H](CO)[C@H](O)[C@H]1O	ATCC 25291	Median MIC	Mycobacterium avium	-	-	-	-	1.13 µg/mL
Cc1nn(-c2ccccc2)c2c1C(c1cn(-c3ccccc3)nc1-c1ccc(Cl)cc1)C1=C(NC(C)(c3cc(O)ccc3Cl)NC1=O)O2	NCIM 2240	zone	Mycobacterium phlei	0.5 mg/mL	agar diffusion / agar	-	-	2.4 mm
N/C(=N\N=C\c1cccc2ccccc12)c1ccccn1	-	inhibition	Mycobacterium fortuitum	1000 µM	-	-	-	18.3%
C#CC(C)(CC)OC(C)=O	1173P2	MIC	Mycobacterium bovis BCG	-	resazurin	24 h	-	125 µg/mL
CCNC(=O)Nc1ccc(S(=O)(=O)Nc2cc(C)on2)cc1	235/80	MIC100	Mycobacterium kansasii	-	broth dilution / absorbance	7 d	-	125 µM
O=C(O)c1cn(C2CC2)c2c(Cl)c(N3C[C@@H]4CCCN[C@@H]4C3)c(F)cc2c1=O	K-10(PYUB180)	MIC	Mycobacterium avium paratuberculosis	-	-	-	-	0.015 µg/mL
CCC(C)(C)c1ccc(/C=N/N=C(\N)c2ccccn2)cc1	-	inhibition	Mycobacterium fortuitum	1000 µM	-	-	-	6.2%
CO[C@H]1/C=C/O[C@@]2(C)Oc3c(C)c(O)c4c(=O)c(c5oc6cc(N7CCN(CC(C)C)CC7)cc(=O)c6nc5c4c3=C2O)NC(=O)/C(C)=C\C=C\[C@H](C)[C@H](O)[C@@H](C)[C@@H](O)[C@@H](C)[C@H](OC(C)=O)[C@@H]1C	3354	MBC	Mycobacterium avium	-	-	-	-	0.25 µg/mL
NCC1CN(c2c(F)cc3c(=O)c(C(=O)O)cn(C4CC4)c3c2F)CC1c1ccccc1	1172733	MIC	Mycobacterium avium complex	-	-	-	-	16 µg/mL
CO[C@H]1/C=C/O[C@@]2(C)Oc3c(C)c(O)c4c(O)c(c5c(c4c3C2=O)NC2(CCN(CC(C)C)CC2)N=5)=NC(=O)/C(C)=C\C=C\[C@H](C)[C@H](O)[C@@H](C)[C@@H](O)[C@@H](C)[C@H](OC(C)=O)[C@@H]1C	Isolate 90-0177	MIC	Mycobacterium avium	-	-	-	-	1 µg/mL
CCc1cc(C(N)=S)ccn1	ATCC 25291	Mean MIC	Mycobacterium avium	-	-	-	-	2.65 µg/mL
COc1ccc(-c2nn(-c3ccccc3)cc2C2C3=C(NC(C)(c4cc(O)c(I)cc4Cl)NC3=O)Oc3c2c(C)nn3-c2ccccc2)cc1	NCIM 5138	zone	Mycobacterium smegmatis	0.1 mg/mL	agar diffusion / agar	-	-	8 mm
CC[C@H]1OC(=O)[C@H](C)[C@@H](O[C@H]2C[C@@](C)(OC)[C@@H](O)[C@H](C)O2)[C@H](C)[C@@H](O[C@@H]2O[C@H](C)C[C@H](N(C)C)[C@H]2O)[C@](C)(OC)C[C@@H](C)C(=O)[C@H](C)[C@@H](O)[C@]1(C)O	37 clinical isolates	MIC90	Mycobacterium marinum	-	-	-	-	1.5 µg/mL
CC[C@@H](CO)NCCN[C@@H](CC)CO	N-752 (HIV-)	MIC	Mycobacterium avium intracellulare	-	-	-	-	0.5 µg/mL
Cc1nn(-c2ccccc2)c2c1C(c1cn(-c3ccccc3)nc1-c1ccc(Cl)cc1)C1=C(NC(C)(c3cc(O)c(I)cc3Cl)NC1=O)O2	NCIM 2240	zone	Mycobacterium phlei	1 mg/mL	agar diffusion / agar	-	-	2.8 mm
CN(C)c1cc(NC(=O)CNC(C)(C)C)c(O)c2c1C[C@H]1C[C@H]3[C@H](N(C)C)C(=O)C(C(N)=O)=C(O)[C@@]3(O)C(=O)C1=C2O	X51	MIC	Mycobacterium abscessus	-	broth dilution	-	-	1 µg/mL
CCN1CCN(c2c(F)cc3c(=O)c(C(=O)O)cn(C4CC4)c3c2OC)CC1	BCG-CX2 (A90V D94N)	MIC	Mycobacterium bovis	-	-	-	-	5.5 µg/mL
CC1CN(c2c(F)c(N)c3c(=O)c(C(=O)O)cn(C4CC4)c3c2F)CCN1C	1988557	MIC	Mycobacterium avium complex	-	-	-	-	0.5 µg/mL
NC[C@H]1O[C@H](O[C@H]2[C@H](O)[C@@H](O[C@H]3O[C@H](CO)[C@@H](O)[C@H](N)[C@H]3O)[C@H](N)C[C@@H]2N)[C@H](O)[C@@H](O)[C@@H]1O	N-846 (HIV-)	MIC	Mycobacterium avium intracellulare	-	-	-	-	16 µg/mL
CNc1ccc2oc(C[C@@H]3OC4(CC[C@@H]3C)O[C@H](C(C)C(=O)c3ccc[nH]3)[C@H](C)C[C@H]4C)nc2c1C(=O)O	-	MIC	Mycobacterium aurum	-	resazurin	-	C330 deletion	0.64 µg/mL
CCC1CN(c2cc3c(cc2F)c(=O)c(C(=O)O)cn3C2CC2)CCN1	BCG-KD1295 (WILD TYPE)	MIC	Mycobacterium bovis	-	-	-	-	0.08 µg/mL
C/C=C(C)/C=C(\C)[C@@H](O)[C@H](C)[C@@H](O)[C@H](O)[C@@H]1C/C=C\C=C\[C@@H](O)C[C@H](O)[C@@H](C)c2nc(cs2)/C=C(\CCCCCC)C(=O)O1	-	MIC	Mycobacterium luteus	-	visual reading	-	-	8 µg/mL
NNC(=O)c1ccncc1	CAMP 5644	MIC100	Mycobacterium marinum	-	broth dilution	-	-	467 µM
O=C(O)c1cn(C2CC2)c2c(F)c(N3CC4C(CO)C4C3)c(F)cc2c1=O	1988557	MIC	Mycobacterium avium complex	-	-	-	-	8 µg/mL
CC[C@H]1OC(=O)[C@H](C)[C@@H](O[C@H]2C[C@@](C)(OC)[C@@H](O)[C@H](C)O2)[C@H](C)[C@@H](O[C@@H]2O[C@H](C)C[C@H](N(C)C)[C@H]2O)[C@](C)(OC)C[C@@H](C)C(=O)[C@H](C)[C@@H](O)[C@]1(C)O	V133	MIC	Mycobacterium abscessus	-	broth dilution	-	-	0.125 µg/mL
C#CCCOC(C)=O	1173P2	MIC	Mycobacterium bovis BCG	-	resazurin	48 h	-	125 µg/mL
C[C@H]1COC2(CCN(C3=NC(=O)c4cc(C(F)(F)F)cc([N+](=O)[O-])c4S3(=O)=O)CC2)O1	IMET 10670	MIC	Mycobacterium vaccae	-	broth dilution / turbidity	-	-	<0.013 µg/mL

A second listing of 5 rows from above:

NC1CCN(c2nc3c(cc2F)c(=O)c(C(=O)O)cn3-c2ccc(F)cc2F)C1 ; strain or isolate: 25 isolates ; measure: MIC90 ; organism: Mycobacterium fortuitum ; result: >8 µg/mL
CC[C@@H](CO)NCCN[C@@H](CC)CO ; strain or isolate: K-10(PYUB180) ; measure: MIC ; organism: Mycobacterium avium paratuberculosis ; result: 10 µg/mL
COc1cc(Cc2cnc(N)nc2N)cc(OC)c1OC ; strain or isolate: Isolate 5143 ; measure: MBC ; organism: Mycobacterium ulcerans ; result: >32 µg/mL
CCCCNC(=O)Nc1ccc(S(=O)(=O)Nc2cc(C)on2)cc1 ; strain or isolate: 235/80 ; measure: MIC100 ; organism: Mycobacterium kansasii ; method: broth dilution / absorbance ; conditions: 21 d ; result: 250 µM
CC(C)(C)c1ccc(/C=N/N=C(\N)c2ccccn2)cc1 ; measure: inhibition ; organism: Mycobacterium fortuitum ; dose: 100 µM ; result: 5.8%